PubChem BioAssay AID504761, Drosophila RNAi Screening Center – 2011

Aim: 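Fly genes whose silencing reduces dengue virus type 2 infection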 (primary screen)
Cell system: D.Mel-2 cells from Drosophila
Reagents: long dsRNA against Drosophila genes
Challenge: infection with dengue virus type 2; dose and infection time not stated
Detection: 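Per well on two replicate plates, imaging gave the percent of cells positive for viral envelope protein, ranked by infection, and a nuclear count of cells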
Reading the numbers: infection score: higher = more virus-infected cells; cell count: higher = more cells in the well
Rule for the call: 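Very low infection ranking in both replicate wells (chance probability at most 0.065), then a retest showing infection dropped 1.5-fold or more at p below 0.05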
Meaning of the calls: active = confirmed: knock-down lowers infection; inactive = not picked or not confirmed
In all, the deposit lists about 22,000 reagents; shown is an unselected part of those that have a named target and a result. In the full data, 116 (0.52%) got an active call. 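Calls depend on retest data that are not deposited; infection was ranked per plate without normalising between plates; the unit of the infection score is not given.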 Raw values are not corrected between plates. Reagents against one gene are numbered here. A plus sign joins genes that one reagent is predicted to hit. The record does not give: the amount of reagent, the time to read-out.

Target gene | reagent no. | infection score, replicate 1 | infection score, replicate 2 | cell count, replicate 1 | cell count, replicate 2 | Call
CG12836 (GeneID 35630) | 1 | 15.6 | 18.2 | 6407 | 4720 | inactive
stnB + stnA | 1 | 27.6 | 7.23 | 2025 | 6890 | inactive
stnB + stnA | 2 | 2.15 | 4.63 | 6617 | 6156 | inactive
stnB + stnA | 3 | 3.34 | 1.24 | 6041 | 5807 | inactive
DCP1 (GeneID 37790) | 1 | 18.7 | 15.9 | 5686 | 4478 | inactive
DCP1 (GeneID 37790) | 2 | 1.56 | 15.8 | 6785 | 5638 | inactive
Hip14 (GeneID 39747) | 1 | 4.18 | 6.7 | 6692 | 6361 | inactive
flw (GeneID 44289) | 1 | 9.58 | 5.11 | 4790 | 1448 | inactive
flw (GeneID 44289) | 2 | 7.28 | 28.3 | 6166 | 5831 | inactive
flw (GeneID 44289) | 3 | 2.05 | 6.67 | 5991 | 5903 | inactive
lectin-24Db (GeneID 53550) | 1 | 2 | 3.62 | 6242 | 5862 | inactive
CG7888 (GeneID 39232) | 1 | 4.81 | 7.4 | 6606 | 6270 | inactive
vas (retired record) (GeneID 34884) | 1 | 5.66 | 7.92 | 7188 | 2324 | inactive
CG17124 (GeneID 34485) | 1 | 3.38 | 3.47 | 6413 | 6680 | inactive
CG17124 (GeneID 34485) | 2 | 1.53 | 31.4 | 459 | 5138 | inactive
Fs(2)Ket (GeneID 35336) | 1 | 13.4 | 13.6 | 763 | 538 | inactive
Fs(2)Ket (GeneID 35336) | 2 | 7.96 | 4.02 | 1181 | 946 | inactive
CG9986 (GeneID 43386) | 1 | 5.52 | – | 5854 | 224 | inactive
CG9986 (GeneID 43386) | 2 | 14.8 | – | 2661 | 369 | inactive
LManII (GeneID 34437) | 1 | 19.4 | 7.65 | 6420 | 6494 | inactive
CG10474 (GeneID 37211) | 1 | 1.44 | 0.52 | 6411 | 6563 | inactive
Nop56 (GeneID 42633) | 1 | 3.86 | 9.23 | 5882 | 5806 | inactive
CG32276 (GeneID 251645) | 1 | 0.87 | 1.6 | 6346 | 6058 | inactive
CG7881 (GeneID 35521) | 1 | 5.53 | 8.81 | 6783 | 5845 | inactive
Gr64b (GeneID 117480) | 1 | 2.81 | 12.6 | 6151 | 5877 | inactive
CG15456 (GeneID 50123) | 1 | 5.07 | 3.45 | 6010 | 5707 | inactive
Ote (GeneID 37090) | 1 | 8.69 | 7.09 | 6719 | 6758 | inactive
CG7179 (GeneID 34059) | 1 | 7.82 | 8.46 | 6180 | 6856 | inactive
Lim1 (GeneID 31813) | 1 | 8.6 | 9.97 | 6708 | 6658 | inactive
CG8768 (GeneID 36400) | 1 | 13.3 | 14.8 | 1662 | 6340 | inactive
Pglym78 (GeneID 43447) | 1 | 7.03 | 6.07 | 6185 | 6775 | inactive
Pglym78 (GeneID 43447) | 2 | 1.11 | 1.83 | 6503 | 6179 | inactive
Teh3 (GeneID 50170) | 1 | 3.26 | 3.98 | 6528 | 6181 | inactive
Teh3 (GeneID 50170) | 2 | 25.6 | 16 | 3232 | 4697 | inactive
anchor (GeneID 39965) | 1 | 12.8 | 11.8 | 5340 | 4253 | inactive
Cln3 (GeneID 39981) | 1 | 2.38 | 3.77 | 6640 | 6764 | inactive
Cln3 (GeneID 39981) | 2 | 2.11 | 5.73 | 6387 | 6390 | inactive
eRF3 (GeneID 34658) | 1 | 5.06 | 4.83 | 3281 | 2030 | inactive
Polr1F (GeneID 33963) | 1 | 6.99 | 31.6 | 1088 | 4942 | inactive
Polr1F (GeneID 33963) | 2 | 2.04 | 3.89 | 6262 | 6372 | inactive

Part of the list above in another layout.
{"Target gene": "stnB + stnA", "reagent no.": 1, "infection score, replicate 1": 27.6, "infection score, replicate 2": 7.23, "cell count, replicate 1": 2025, "cell count, replicate 2": 6890, "Call": "inactive"}
{"Target gene": "stnB + stnA", "reagent no.": 2, "infection score, replicate 1": 2.15, "infection score, replicate 2": 4.63, "cell count, replicate 1": 6617, "cell count, replicate 2": 6156, "Call": "inactive"}
{"Target gene": "stnB + stnA", "reagent no.": 3, "infection score, replicate 1": 3.34, "infection score, replicate 2": 1.24, "cell count, replicate 1": 6041, "cell count, replicate 2": 5807, "Call": "inactive"}
